Pooled drug test results. Numbers come from NIAID ChemDB, via PubChem.

Shared fields: host protein counter-tests; organism: Human

ICn is the concentration giving n% inhibition.

O=C(Cn1c(-c2cscn2)nc2ccccc21)Nc1ccc(Br)cc1 ; endpoint: IC50 ; method: fluorescence / absorbance ; protein: IMPDH2 ; value: ≥20 µM
Nc1nc2c(ncn2CCOCP(=O)(O)O)c(=O)[nH]1 ; endpoint: Ki ; method: absorbance ; protein: Hypoxanthine-guanine phosphoribosyltransferase ; value: 29 µM
Nc1nc2c(ncn2CC(CO)OCP(=O)(O)O)c(=O)[nH]1 ; endpoint: Ki ; method: absorbance ; protein: Hypoxanthine-guanine phosphoribosyltransferase ; value: 5.9 µM
O=c1oc(/C=C/C(F)(F)F)ns1 ; endpoint: IC50 ; method: broth dilution / fluorescence ; protein: Proteasome ; value: 11 µM
COC(=O)CCCN(CCn1cnc2c(=O)[nH]c(N)nc21)CCP(=O)(O)O ; endpoint: Ki ; method: absorbance ; protein: Hypoxanthine-guanine phosphoribosyltransferase ; value: 0.1 µM
O=C(Cn1c(-c2cscn2)nc2ccccc21)Nc1ccc(Cl)cc1 ; endpoint: IC50 ; method: fluorescence / absorbance ; protein: IMPDH2 ; value: ≥20 µM
Cn1c(=O)c2c(nc3n2CC(O)CN3c2ccc(O)cc2)n(C)c1=O ; endpoint: IC50 ; method: nucleotide incorporation ; protein: DNA polymerase beta ; value: 155 µM
O=c1oc(C#Cc2ccccc2)ns1 ; endpoint: IC50 ; method: broth dilution / fluorescence ; protein: Proteasome ; value: 9.1 µM
C=CCN(C(=O)OCc1ccccc1)C1CCN(CCC(C)(c2ccccc2)C2Nc3ccccc3S(=O)(=O)N2)CC1 ; endpoint: IC50 ; protein: CCR1 ; value: >1 µM
Nc1nc2c(ncn2[C@@H]2CNC[C@H]2OCP(=O)(O)O)c(=O)[nH]1 ; endpoint: Ki ; method: absorbance ; protein: Hypoxanthine-guanine phosphoribosyltransferase ; value: 0.3 µM
Cc1ccc(-c2ccc3c(c2)C=C(C(=O)Nc2ccc(C[N+](C)(C)C4CCOCC4)cc2)CCC3)cc1 ; endpoint: IC50 ; protein: CCR2b ; value: 0.027 µM
Nc1nc2c(ncn2CCOCCP(=O)(O)O)c(=O)[nH]1 ; endpoint: Ki ; method: absorbance ; protein: Hypoxanthine-guanine phosphoribosyltransferase ; value: 1 µM
CC(C)=CCN1Cc2cccc3[nH]c(=S)n(c23)C[C@@H]1C ; endpoint: IC50 ; protein: DNA polymerase alpha ; value: >175 µM
O=C(Cn1c(-c2nccs2)nc2ccccc21)Nc1ccc2ccccc2c1 ; endpoint: IC50 ; method: fluorescence / absorbance ; protein: IMPDH2 ; value: ≥40 µM

Again, the opening 2 rows:

smiles,endpoint,method,protein,value
O=C(Cn1c(-c2cscn2)nc2ccccc21)Nc1ccc(Br)cc1,IC50,fluorescence / absorbance,IMPDH2,≥20 µM
Nc1nc2c(ncn2CCOCP(=O)(O)O)c(=O)[nH]1,Ki,absorbance,Hypoxanthine-guanine phosphoribosyltransferase,29 µM

Lines come from different laboratories, so protocols vary.